Anti-infective test results gathered from many reports (values: NIAID ChemDB through PubChem).

Shared fields: whole-cell or culture tests; species: Candida albicans

Rows are shuffled and stem from different studies. MIC50, MIC90 and the like: level of inhibition, or share of isolates inhibited. Inhibition is in % at the dose shown (toxicity tests: loss of growth or viability). Blank or dashed fields: not listed here. ECn: concentration that inhibits the pathogen or its effect by n%.

| structure | read by | read-out | strain | tested at | setting | result |
|---|---|---|---|---|---|---|
| Cc1ccc(-n2cc(C(C)(C)O)nn2)cc1C | broth dilution | inhibition | URM 4609 | 2048 µg/mL | - | 0% |
| C=CCc1ccc(O)c(OC)c1 | turbidity | MIC90 | 3036 | - | - | 495 µg/mL |
| Fc1ccc(C(c2nccc3ccccc23)n2ccnc2)cc1.O=[N+]([O-])O | - | Mean MIC | 44 strains | - | - | 88.4 µg/mL |
| OC(CN1CCN(c2ccc(OCc3ccncc3)cc2)CC1)(Cn1cncn1)c1ccc(F)cc1F | - | MIC80 | FHB3 | - | - | 1 µg/mL |
| Clc1ccc(COc2ccc(C(c3cccc4ccccc34)n3ccnc3)cc2)cc1.O=[N+]([O-])O | - | Mean MIC | 16 strains | - | - | ≥256 µg/mL |
| Clc1ccc(COC(Cn2ccnc2)c2ccc(Cl)cc2Cl)c(Cl)c1 | broth dilution | EC90 | 10 isolates | - | pH 4 | 1 µg/mL |
| CCCCCCCCCCCn1cc[n+](COCCCOC[n+]2ccn(CCCCCCCCCCC)c2)c1 | agar diffusion | MIC100 | ATCC 90028 | - | - | 81 µM |
| NCCCC[C@H](NC(=O)[C@@H](N)CCCCN)C(=O)N[C@@H](CCC(N)=O)C(=O)N[C@@H](CCCN=C(N)N)C(=O)O | - | inhibition | ATCC 10231 | 100 µM | - | 0% |
| Cc1ccc(-c2c3c(N)c4c(nc3nc3c2c(C)nn3-c2ccccc2)CCC4)cc1 | broth dilution / absorbance | MIC80 | CCC 126 | - | - | 62.5 µg/mL |
| Clc1ccccc1C(c1ccccc1)(c1ccccc1)n1ccnc1 | broth dilution | EC90 | 10 isolates | - | pH 6 | 0.125 µg/mL |
| COc1ccc(C(Cc2cccc(-n3cccc3)c2)n2ccnc2)cc1 | - | Geometric mean MIC | 34 strains | - | - | 156 µg/mL |
| Fc1ccccc1COc1ccc(C(c2ccc3ccccc3c2)n2ccnc2)cc1 | - | Mean MIC | 17 strains | - | - | 74.8 µg/mL |
| CC1(C)O[C@H]2[C@H](O)[C@@H](N=[N+]=[N-])C=C(c3ccc(C=O)cc3)[C@H]2O1 | broth dilution / turbidity | inhibition | ATCC 10231 | 31.25 µg/mL | - | 67.18% |
| Oc1ccc2cc1Oc1ccc(cc1)CCc1ccc(c(O)c1)-c1c(O)cccc1CC2 | broth dilution | MIC80 | CA2 | - | - | 32 µg/mL |
| CCC(C)n1ncn(-c2ccc(N3CCN(c4ccc(OC[C@H]5CO[C@](Cn6cncn6)(c6ccc(Cl)cc6Cl)O5)cc4)CC3)cc2)c1=O | - | MFC99 | A28200 | - | - | >16 µg/mL |
| C=CCSS(=O)CC=C | broth dilution | MIC50 | Clinical Isolate 3064 | - | - | 0.78 µg/mL |
| Cc1ccc(C(C)C)cc1 | - | MLC | H37 | - | - | >10 µg/mL |
| C[C@H]1[C@H](O)[C@@H](C)/C=C/C=C/C=C/C=C/C=C/C=C/C=C/[C@H](O[C@@H]2O[C@H](C)[C@@H](O)[C@H](N)[C@@H]2O)C[C@@H]2O[C@](O)(C[C@@H](O)C[C@@H](O)CC[C@H](O)[C@@H](O)C[C@@H](O)CC(=O)O[C@H]1C)C[C@H](O)[C@H]2C(=O)O | broth dilution | EC50 | 10231 | - | - | 2 µM |
| CCCCCCCCCCCCn1cc[n+](COCCOC[n+]2ccn(CCCCCCCCCCCC)c2)c1 | agar diffusion | MIC100 | ATCC 90028 | - | - | 16 µM |
| O=[N+]([O-])O.c1ccc(-c2ccc(C(c3nccc4ccccc34)n3ccnc3)cc2)cc1 | - | Mean MIC | 44 strains | - | - | 110.8 µg/mL |
| O=[N+]([O-])c1ccccc1CNc1cccc(Cn2ccnc2)c1 | - | Mean MIC | 27 strains | - | - | 75 µg/mL |
| C[C@@H](N1CCN(Cc2cn(Cc3cccc(C(F)(F)F)c3)c3c(F)cccc23)CC1)[C@](O)(Cn1cncn1)c1ccc(F)cc1F | resazurin | MIC80 | ATCC 64548 | - | - | 0.125 µg/mL |
| CCCCCCCCCCn1cc[n+](COCCOC[n+]2ccn(CCCCCCCCCC)c2)c1 | agar diffusion | MIC100 | ATCC 90028 | - | - | 17 µM |
| C[C@@H](N1CCN(Cc2cn(Cc3ccc(F)cc3F)c3c(F)cccc23)CC1)[C@](O)(Cn1cncn1)c1ccc(F)cc1F | resazurin | MIC80 | ATCC 64548 | - | - | 0.5 µg/mL |
| CC(C)(O)c1cn(-c2cccc3ccccc23)nn1 | broth dilution | inhibition | URM 4990 | 2048 µg/mL | - | 0% |
| C[C@@H](N1CCN(Cc2cn(Cc3ccc(C(F)(F)F)cc3)c3cc(Cl)ccc23)CC1)[C@](O)(Cn1cncn1)c1ccc(F)cc1F | resazurin | MIC80 | ATCC MYA-1003 | - | - | >128 µg/mL |
| NC(=NC1CCCC1)c1ccc(-c2ccc(-c3ccc(C(N)=NC4CCCC4)cc3)o2)cc1 | - | MFC | Isolate 3028 fluconazole-resistant | - | - | 50 µg/mL |
| CCCCCCCCn1cc[n+](COCCCCCCOC[n+]2ccn(CCCCCCCC)c2)c1 | agar diffusion | MIC100 | ATCC 90028 | - | - | 2 µM |
| COc1ccc(C(Cc2ccccc2N)n2ccnc2)cc1 | - | Geometric mean MIC | 34 strains | - | - | 69.26 µg/mL |
| O=C(Nc1cccc(Cn2ccnc2)c1)c1ccccc1 | - | Mean MIC | 27 strains | - | - | 175 µg/mL |
| CC(C)(O)c1cn(-c2ccc([N+](=O)[O-])cc2)nn1 | broth dilution | inhibition | URM 4126 | 2048 µg/mL | - | 0% |
| CCCCCCCCCCCCCCn1cc[n+](COCCCCCCOC[n+]2ccn(CCCCCCCCCCCCCC)c2)c1 | agar diffusion | MIC100 | ATCC 90028 | - | - | 54 µM |
| Nc1[nH]c(=O)ncc1F | broth dilution | EC90 | 15 isolates | - | pH 5 | 0.25 µg/mL |
| Nc1cccc(Cn2ccnc2)c1 | - | Mean MIC | 27 strains | - | - | 135 µg/mL |
| COc1ccc(C(Cc2c(Cl)cccc2Cl)n2ccnc2)cc1 | - | Geometric mean MIC | 34 strains | - | - | 22.38 µg/mL |
| Clc1ccccc1COc1ccc(C(c2ccc(-c3ccccc3)cc2)n2ccnc2)cc1.O=[N+]([O-])O | - | Mean MIC | 17 strains | - | - | ≥256 µg/mL |
| Cc1ccc(-c2c3c(N)c4c(nc3nc3c2c(C)nn3-c2ccccc2)CCCCC4)cc1 | broth dilution / absorbance | MIC80 | CCC 129 | - | - | 62.5 µg/mL |
| Clc1ccccc1C=Nc1cccc(Cn2ccnc2)c1 | - | Mean MIC | 27 strains | - | - | 137.5 µg/mL |
| C[C@@H](c1ncncc1F)[C@](O)(Cn1cncn1)c1ccc(F)cc1F | broth dilution | EC90 | 10 isolates | - | pH 6 | 1 µg/mL |
| Clc1ccc(COc2ccc(C(c3ccc(-c4ccccc4)cc3)n3ccnc3)cc2)cc1.O=[N+]([O-])O | - | Mean MIC | 17 strains | - | - | ≥256 µg/mL |
| C[C@H]1[C@H](O)[C@@H](C)/C=C/C=C/C=C/C=C/C=C/C=C/C=C/[C@H](O[C@@H]2O[C@H](C)[C@@H](O)[C@H](N)[C@@H]2O)C[C@@H]2O[C@](O)(C[C@@H](O)C[C@@H](O)CC[C@H](O)[C@@H](O)C[C@@H](O)CC(=O)O[C@H]1C)C[C@H](O)[C@H]2C(=O)O | broth dilution / absorbance | MIC100 | CCC 130 | - | - | 0.5 µg/mL |
| CCCCCn1cc[n+](COCCCOC[n+]2ccn(CCCCC)c2)c1 | agar diffusion | MIC100 | ATCC 90028 | - | - | 1379 µM |
| CC(C)(O)c1cn(-c2ccc3ccccc3c2)nn1 | broth dilution | inhibition | URM 4385 | 2048 µg/mL | - | 0% |
| CCC(C)n1ncn(-c2ccc(N3CCN(c4ccc(OC[C@H]5CO[C@](Cn6cncn6)(c6ccc(Cl)cc6Cl)O5)cc4)CC3)cc2)c1=O | - | MFC50 | 12 isolates | - | - | >8 µg/mL |
| COc1ccc(C(Cc2ccccc2Cl)n2ccnc2)cc1 | - | Geometric mean MIC | 34 strains | - | - | 198.1 µg/mL |
| CC(O)Cc1ccc(Cn2cc(CN3CCN([C@H](C)[C@](O)(Cn4cncn4)c4ccc(F)cc4F)CC3)c3cccc(F)c32)cc1 | resazurin | MIC80 | ATCC 90028 | - | - | 2 µg/mL |
| Cc1nn(-c2ccccc2)c2nc3nc4c(c(N)c3c(-c3ccc(Cl)cc3)c12)CCCC4 | broth dilution / absorbance | MIC80 | ATCC 10231 | - | - | 125 µg/mL |
| CCCCCCCCCCCn1cc[n+](COCCCCCOC[n+]2ccn(CCCCCCCCCCC)c2)c1 | agar diffusion | MIC100 | ATCC 90028 | - | - | 4 µM |

5 of the rows above, restated:

structure,read by,read-out,strain,tested at,setting,result
O=[N+]([O-])c1ccccc1CNc1cccc(Cn2ccnc2)c1,-,Mean MIC,27 strains,-,-,75 µg/mL
CCCCCCCCn1cc[n+](COCCCCCCOC[n+]2ccn(CCCCCCCC)c2)c1,agar diffusion,MIC100,ATCC 90028,-,-,2 µM
Nc1[nH]c(=O)ncc1F,broth dilution,EC90,15 isolates,-,pH 5,0.25 µg/mL
Clc1ccc(COc2ccc(C(c3ccc(-c4ccccc4)cc3)n3ccnc3)cc2)cc1.O=[N+]([O-])O,-,Mean MIC,17 strains,-,-,≥256 µg/mL
CCC(C)n1ncn(-c2ccc(N3CCN(c4ccc(OC[C@H]5CO[C@](Cn6cncn6)(c6ccc(Cl)cc6Cl)O5)cc4)CC3)cc2)c1=O,-,MFC50,12 isolates,-,-,>8 µg/mL